{"source": "patent US20250255894A1", "about": "“INHIBITORS OF EIF4A” (published 2025)", "system": "H1N1", "test": "Low dose serial passage of H1N1 in MDCK cells, plaque assay", "data": [{"smiles": "CC(N)C12CC3CC(CC(C3)C1)C2", "note": "(centres unmarked)", "values": [{"measurement": "viral titre in passage P2", "setting": "MDCK cells, NC 20 μM or RIM 1 μg/ml, 48 h pi", "result": "viral titre increased significantly"}, {"measurement": "resistance on repeat treatment", "setting": "serial passage P0 to P2", "result": "resistance to RIM increased during passage P2"}]}]}
